Results of unrelated studies side by side (data: NIAID ChemDB).

A number after MIC or MFC names an inhibition level or a share of isolates.

compound,kind,organism,strain or isolate,protein,method,measure,dose,result
O=C1c2ccccc2C(=O)N1[N+](=O)[O-],culture,Mycobacterium tuberculosis,H37Rv,,BACTEC,MIC bound,,>12.5 µg/mL
Cc1cc(Cl)cc(SCC(=O)O)c1C#N,culture,Mycobacterium tuberculosis,H37Rv,,,MIC,,>100 µg/mL
Cc1ccc(NC(=S)NC(=O)c2ccco2)cc1Cl,culture,Mycobacterium tuberculosis,H37Rv,,BACTEC,inhibition,12.5 µg/mL,55%
CCNc1cccc(CC(=O)O)c1,culture,Mycobacterium tuberculosis,H37Rv,,,MIC,,>100 µg/mL
Fc1ccc(N2CCCCC2)c(NC(=S)c2ccncc2)c1,host protein,,,MELK,kinase activity,inhibition,10 µM,39%
COc1ccc(-c2cncc(N3CCN(c4cccc(C(F)(F)F)c4)CC3)n2)cc1OC,target,Cytomegalovirus,,UL97 kinase,,IC50,,<100 µM
O=C1N[C@H]2CCCC[C@@H]2C(=O)N1OS(=O)(=O)c1ccccc1,culture,Mycobacterium tuberculosis,H37Rv,,resazurin,MIC bound,,>6.25 µg/mL
C=CCc1ccc(OC)c(OC)c1,culture,Candida albicans,3036,,turbidity,MIC90,,340 µg/mL
CC(=O)c1cccc(-c2cncc(N3CCN(c4ccccn4)CC3)n2)c1,target,Cytomegalovirus,,UL97 kinase,,IC50,,<10 µM
O=C1CC(SC(=S)N2CCOCC2)C(=O)N1,culture,Mycobacterium tuberculosis,PZA-R,,,MIC,,3.2 µg/mL
C[As](C)c1ccc(-c2ccc3cc(Cl)ccc3n2)cc1,culture,Mycobacterium tuberculosis,H37Rv,,,MIC,,>100 µg/mL
Cc1c(C(=O)CC(=O)C(=O)Nc2ccc(Cl)cc2)[n+](=O)c2ccccc2n1[O-],culture,Mycobacterium tuberculosis,H37Rv,,resazurin,inhibition,6.25 µg/mL,-3%
Cc1cc(C)cc(-c2cncc(N3CCN(c4ccc(F)cc4F)CC3)n2)c1,target,Cytomegalovirus,,UL97 kinase,,inhibition,10 µM,>15%
CCN(CC)c1ccc(N=C2C=C(Cl)C(=O)c3ncccc32)c(C)c1,culture,Mycobacterium tuberculosis,H37Rv,,BACTEC,inhibition,12.5 µg/mL,99%
c1cncc(C2=NCCC2)c1,culture,Mycobacterium tuberculosis,H37Rv,,,MIC,,>100 µg/mL
Fc1ccc(-c2cncc(N3CCN(c4ccccc4)CC3)n2)cc1,target,Cytomegalovirus,,UL97 kinase,,inhibition,1 µM,<50%
CC(=O)NC1=CC(=O)C(=O)C=C1,culture,Mycobacterium tuberculosis,H37Rv,,,MIC,,>100 µg/mL
COc1ccc(N2CCN(c3cncc(-c4ccccc4CO)n3)CC2)cc1OC,target,Cytomegalovirus,,UL97 kinase,,IC50,,<100 µM
CCCCCCCN,culture,Mycobacterium tuberculosis,H37Rv,,,MIC,,800 µg/mL
CC(C)N=c1cc2n(-c3ccc(Cl)cc3)c3ccccc3nc-2cc1Nc1ccc(Cl)cc1,culture,Mycobacterium tuberculosis,CS-R,,,MIC,,≤0.1 µg/mL
CC(=O)NC(=S)NC(C)=O,culture,Mycobacterium tuberculosis,H37Rv,,,MIC,,>100 µg/mL
O=C(O)c1oc2ccccc2c1/C=C/c1ccccc1,culture,Mycobacterium tuberculosis,H37Rv,,BACTEC,MIC bound,,>12.5 µg/mL
O=C(O)c1cc(O)c(O)c(O)c1,culture,Mycobacterium tuberculosis,H37Rv,,,MIC,,100 µg/mL
CC(=O)c1ccc(N2CCN(c3cncc(-c4ccccc4C(C)=O)n3)CC2)cc1,target,Cytomegalovirus,,UL97 kinase,,IC50,,<100 µM
NC(N)=NNCC(=O)Nc1ccc(S(=O)(=O)c2ccc(NC(=O)CNN=C(N)N)cc2)cc1,culture,Mycobacterium tuberculosis,H37Rv,,BACTEC,MIC,,≥12.5 µg/mL
CN(C)c1ccc(NC(=S)Nc2ccc(N(C)C)cc2)cc1,culture,Mycobacterium tuberculosis,H37Rv,,,MIC,,>100 µg/mL
N=C(N)c1ccc(-c2ccc(-c3ccccc3)o2)cc1,culture,Mycobacterium tuberculosis,H37Rv,,BACTEC,MIC bound,,≤12.5 µg/mL
Cc1ccc(-c2cncc(N3CCN(c4ccc(F)cc4F)CC3)n2)cc1,target,Cytomegalovirus,,UL97 kinase,,IC50,,<100 µM
CS(=O)(=O)O.Cc1c(O)/c(=C\O)c2nc3c(=O)ccc(C(=O)NCCN(C)C)c3[nH]c2c1=O,culture,Mycobacterium tuberculosis,H37Rv,,BACTEC,MIC,,≥128 µg/mL
COc1cccc(-c2cncc(N3CCN(c4cccc(Cl)c4)CC3)n2)c1OC,target,Cytomegalovirus,,UL97 kinase,,inhibition,10 µM,>15%
Cc1c(N)cccc1[N+](=O)[O-],culture,Mycobacterium tuberculosis,H37Rv,,,MIC,,100 µg/mL
COc1ccc(-c2cncc(N3CCN(c4ccccn4)CC3)n2)cc1OC,target,Cytomegalovirus,,UL97 kinase,,IC50,,<10 µM
Cc1cc(C)c(CNCNCc2c(C)cc(C)cc2C)c(C)c1,culture,Mycobacterium tuberculosis,H37Rv,,,MIC,,>100 µg/mL

3 of the rows above, restated:

compound,kind,organism,strain or isolate,protein,method,measure,dose,result
Fc1ccc(-c2cncc(N3CCN(c4ccccc4)CC3)n2)cc1,target,Cytomegalovirus,,UL97 kinase,,inhibition,1 µM,<50%
COc1cccc(-c2cncc(N3CCN(c4cccc(Cl)c4)CC3)n2)c1OC,target,Cytomegalovirus,,UL97 kinase,,inhibition,10 µM,>15%
CS(=O)(=O)O.Cc1c(O)/c(=C\O)c2nc3c(=O)ccc(C(=O)NCCN(C)C)c3[nH]c2c1=O,culture,Mycobacterium tuberculosis,H37Rv,,BACTEC,MIC,,≥128 µg/mL

MIC bound comes from a single tested concentration. Inhibition is in % at the dose shown (toxicity tests: loss of growth or viability). ICn is the concentration giving n% inhibition. Neighbouring rows are from separate reports. Blank or dashed fields: not listed here.